Pooled drug test results. Numbers come from NIAID ChemDB, via PubChem.

Shared fields: tests in culture; species: HIV-1; read-out: fold resistance

Blank or dashed fields: not listed here.

compound	method	strain	mutations	cell line	result
Nc1ccn([C@H]2CC[C@@H](CO)O2)c(=O)n1	plaque count	JF14 (RT D67N T69D T215Y)	RT-D67N T69D T215Y	HELA-CD4+	3.98
Cc1cn([C@H]2C[C@H](N=[N+]=[N-])[C@@H](CO)O2)c(=O)[nH]c1=O	cytopathic effect / XTT	4XAZT/Y181C (RT D67N K70R Y181C T215Y K219Q)	RT-D67N K70R Y181C T215Y K219Q	CEM + CEM-SS	33.3
CC(C)c1nc(CN(C)C(=O)N[C@H](C(=O)N[C@@H](Cc2ccccc2)C[C@H](O)[C@H](Cc2ccccc2)NC(=O)OCc2cncs2)C(C)C)cs1	p24	Clinical isolate	PR-L10I K43T M46L I54L L63P A71T V82A L90M Q92K	PBMC	>23
CCc1c(C)[nH]c(=O)c(N(C)C)c1C(=O)c1cccc(CC#N)c1	cytopathic effect / MTT	-	RT-Y181C	MT-4	126
Cc1occc1C(=S)Nc1ccc(Cl)c(/C=N/OC(C)(C)C)c1	p24	IIIB	RT-L100I	CEM	1.7
COc1ccc(S(=O)(=O)N(CC(C)C)C[C@@H](O)[C@H](Cc2ccccc2)NC(=O)O[C@H]2CO[C@H]3OCC[C@H]32)cc1	p24	Clinical isolate	PR-L10I K43T M46L I54L L63P A71T V82A L90M Q92K	PBMC	3
CC(C)=CCN1Cc2cc(Cl)cc3[nH]c(=S)n(c23)C[C@@H]1C	p24	IIIB	RT-L100I	CEM	85
CCc1c(C)[nH]c(=O)c(N(C)C)c1C(=O)c1cccc(Br)c1	cytopathic effect / MTT	-	RT-E138K	MT-4	2.5
Cc1cn([C@H]2C[C@H](N=[N+]=[N-])[C@@H](CO)O2)c(=O)[nH]c1=O	plaque count	P022C RT D67N K70R T215F K219Q	RT-D67N K70R T215F K219Q	HT4 + HT4-6C	140
Cc1occc1C(=S)Nc1ccc(Cl)c(/C=N/OC(C)(C)C)c1	cytopathic effect / XTT	NL4-3 (RT A98G)	RT-A98G	CEM + CEM-SS	8.75
Cc1ccnc2c1NC(=O)c1cccnc1N2C1CC1	XTT	Diphenyl sulfone-resistant (RT-Y181C)	RT-Y181C	CEM + CEM-SS	590
O=S(=O)(c1ccccc1)c1ccccc1	cytopathic effect / XTT	UC10-resistant (RT Y181C K101E)	RT-Y181C K101E	CEM + CEM-SS	>16.3
CC(C)=CCN1Cc2cc(Cl)cc3[nH]c(=S)n(c23)C[C@@H]1C	-	RUD (RT-A98G)	RT-A98G	PBMC	55
Cn1c2ccccc2c2c1cc(C#N)c(=O)n2-c1ccc([N+](=O)[O-])cc1	luciferase	Recombinant	RT-M41L A62V S68N G112S M184V	HeLa	>1
CCc1cc(NCc2nc3c(Cl)ccc(Cl)c3o2)c(=O)[nH]c1C	p24	NL4-3	RT-K101E	MT-4	8
Cc1cn([C@H]2C[C@H](N=[N+]=[N-])[C@@H](CO)O2)c(=O)[nH]c1=O	cytopathic effect	P-1 (RT-K103N Y144F)	RT-K103N Y144F	CEM	10
CC(C)Nc1cccnc1N1CCN(C(=O)c2cc3cc(NS(C)(=O)=O)ccc3[nH]2)CC1	cytopathic effect	BI-12.96 (HXB2(RT-A62V S68G T69D V75I F77L F116Y Q151M))	RT-A62V S68G T69D V75I F77L F116Y Q151M	MT-4	5
Nc1ncnc2c1ncn2CCOCP(=O)(O)O	p24	M184V(RT-M184V)	RT-M184V	MT-2	1.1
Nc1nc(NC2CC2)c2ncn([C@H]3C=C[C@@H](CO)C3)c2n1	RT activity	1617-1 NRTI resistant recombinant	RT-T69K K70G V75I F77L F116Y Q151M M184V	PBMC	>100
Cc1cn([C@H]2C[C@H](N=[N+]=[N-])[C@@H](CO)O2)c(=O)[nH]c1=O	p24 / ELISA	IIIB	K112M K113E V128I M200I H219P I401T R409K D437N L441P	MT-2	0.5
CCOCn1c(Cc2ccccc2)c(C(C)C)c(=O)[nH]c1=O	cytopathic effect	C-1 (RT-K101E)	RT-K101E	CEM	3
CCc1c(C)[nH]c(=O)c(N(C)C)c1Cc1cccc(/C=C/C#N)c1	cytopathic effect / MTT	-	RT-K101E K103N	MT-4	62.5
Cc1ccnc2c1NC(=O)c1cccnc1N2C1CC1	cytopathic effect / MTT	1506-RS (RT-Y188L)	RT-Y188L	MT-4	>588
CC(C)CN(C[C@@H](O)[C@H](Cc1ccccc1)NC(=O)O[C@H]1CCOC1)S(=O)(=O)c1ccc(N)cc1	p24 / ELISA	IIIB	K112M K113E V128I M200I H219P I401T R409K D437N L441P R41K	MT-2	1.2
c1ccc(C2OCc3nc4ccccc4n32)cc1	cytopathic effect / MTT	Pyridinone-resistant (RT Y181C)	RT-Y181C	CEM	≥2
Cc1cn([C@H]2C[C@H](N=[N+]=[N-])[C@@H](CO)O2)c(=O)[nH]c1=O	-	RUD (RT-A98G)	RT-A98G	PBMC	1
Cc1ccnc2c1NC(=O)c1cccnc1N2C1CC1	cytopathic effect / XTT	NL4-3	RT-L100I	CEM + CEM-SS	5
O=c1[nH]c2ccc(Cl)cc2n1Cc1c(F)cccc1F	cytopathic effect	-	RT-K103N	CEM	>22.7
Nc1ccn([C@@H]2CS[C@H](CO)O2)c(=O)n1	RT activity	1617-1 NRTI resistant recombinant	RT-T69K K70G V75I F77L F116Y Q151M M184V	PBMC	>300
Cc1cn([C@@H]2O[C@H](CO[Si](C)(C)C(C)(C)C)C3(OS(=O)(=O)C=C3N)[C@H]2O[Si](C)(C)C(C)(C)C)c(=O)n(C)c1=O	p24	IIIB	RT-G190E	CEM	>2080
Nc1ccn([C@H]2CC[C@@H](CO)O2)c(=O)n1	p24	HXB2-D184 (RT-M184V)	RT-M184V	MT-4	4.4
Cc1cc(C#N)cc(C)c1Oc1nc(Nc2ccc(C#N)cc2)ncc1SCC(=O)N1CCSCC1	MTT	-	Y181C	MT-4	9.4
Nc1ncnc2c1ncn2[C@@H]1O[C@H](CO)C[C@@H]1F	p24	RT F77L/F116Y/Q151M	RT-F77L F116Y Q151M	MT-2	3.1
O=c1[nH]cnc2c1ncn2[C@H]1CC[C@@H](CO)O1	RT activity	4755-5 NRTI resistant recombinant	RT-M41L E44D D67N T69D Y118I M184V L210W T215Y	PBMC	2.4
O=c1[nH]cnc2c1ncn2[C@H]1CC[C@@H](CO)O1	-	DXG 9X(RT-L74V)	RT-L74V	-	>2
CCN(c1nc(F)ccc1NC(C)(C)C)C1CCN(C(=O)c2cc3cc(NC(=O)N4CCN(C)CC4)ccc3[nH]2)CC1	ATP	IIIB	ATV-P36	MT-2	0.6
CC(C)(C)NC(=O)[C@@H]1CN(Cc2cccnc2)CCN1C[C@@H](O)C[C@@H](Cc1ccccc1)C(=O)N[C@H]1c2ccccc2C[C@H]1O	p24	Clinical isolate	PR-L10I I15V E35D N37E K45R I54V L63P A71V V82T L90M I93L C95F	PBMC	37.7
C=Cc1cccc(C(=O)c2c(CC)c(C)[nH]c(=O)c2N(C)C)c1	cytopathic effect / MTT	-	RT-K103N	MT-4	16
O=c1[nH]cnc2c1ncn2[C@H]1CC[C@@H](CO)O1	p24	RT F77L/F116Y/Q151M	RT-F77L F116Y Q151M	MT-2	7.3
N#Cc1cc2[nH]c3ccccc3c2n(-c2ccc([N+](=O)[O-])cc2)c1=O	luciferase	NNRTI-resistant	RT-K103N P225H	HeLa	0.3
Cc1ccnc2c1NC(=O)c1cccnc1N2C1CC1	-	MVP5180 (RT A98G K103R)	RT-A98G K103R	PBMC	6.6
Nc1ccn([C@H]2CC[C@@H](CO)O2)c(=O)n1	p24	K65R(RT-K65R)	RT-K65R	MT-2	4.3
CCc1c(C)[nH]c(=O)c(N(C)C)c1C(=O)c1cccc(/C=C/c2cccnc2)c1	cytopathic effect / MTT	-	RT-Y181C	MT-4	21
CCCN(C)C(=O)Oc1nsnc1-c1c(Cl)ccc(N)c1Cl	MTT	IIIB	RT-V103A	MAGI	2.26
Cc1cn([C@H]2C[C@H](N=[N+]=[N-])[C@@H](CO)O2)c(=O)[nH]c1=O	XTT	UC10-resistant (RT K103N)	RT-K103N	CEM + CEM-SS	0.06
COc1c(O)c(Cl)c2c(c1OC)-c1c(c(Cl)c(O)c(OC)c1OC)C[C@H](C)[C@H](C)C2	cytopathic effect / MTT	A17	RT-K103N Y181C	MT-4	14.1
Cc1cn([C@H]2C=C[C@@H](CO)O2)c(=O)[nH]c1=O	β-galactosidase	HXB2	RT-A62V V75I F77L F116Y Q151M	MAGI (CCR5) + MAGI	8.4
Cc1ccnc2c1NC(=O)c1cccnc1N2C1CC1	cytopathic effect	C-1 (RT-K101E)	RT-K101E	CEM	1
Cc1ccnc2c1NC(=O)c1cccnc1N2C1CC1	plaque count	HIVRTMF (RT L74V)	RT-L74V T215Y	HT4 + HT4 LacZ-1	0.833
Nc1nc2c(ncn2[C@H]2CO[C@@H](CO)O2)c(=O)[nH]1	-	-	RT-M184V T215Y K219Q	-	~1.8
Cc1cn([C@H]2C=C[C@@H](CO)O2)c(=O)[nH]c1=O	RT activity	52534-2 NRTI resistant recombinant	RT-M41L T69ins L74V M184V L210W T215Y	PBMC	9
Nc1nc(=O)n([C@@H]2CS[C@H](CO)O2)cc1F	plaque count	HXB2	RT-V75T	CD4+HELA + HeLa	3.29
CCc1c(C)[nH]c(=O)c(N(C)C)c1C(=O)c1cccc(/C=C/c2cnccn2)c1	cytopathic effect / MTT	-	RT-Y181C	MT-4	3.9
CC(C)CN(C[C@@H](O)[C@H](Cc1ccccc1)NC(=O)O[C@H]1CCOC1)S(=O)(=O)c1ccc(N)cc1	p24	Clinical isolate	PR-L10R N37D M46I I62V L63P A71V G73S V77I V82T L90M I93L	PBMC	6
CCc1c(C)[nH]c(=O)c(N(C)C)c1C(=O)c1cccc(/C(C)=C(\C)C#N)c1	cytopathic effect / MTT	-	RT-K103N	MT-4	4.1
Cc1ccnc2c1NC(=O)c1cccnc1N2C1CC1	β-galactosidase	NL4-3	RT-K103N	MAGI (CCR5) + MAGI	70.5
COc1ccc2c(c1)N(C(=O)OC(C)C)[C@@H](CSC)C(=S)N2	p24	IIIB	RT-K103N	CEM	3
Nc1ccn([C@H]2CC[C@@H](CO)O2)c(=O)n1	cytopathic effect	LZ-07.96 (HXB2 RT T69N L74I Q151M M184V)	RT-T69N L74I Q151M M184V	MT-4	>23.4
Cc1cn([C@H]2C=C[C@@H](CO)O2)c(=O)[nH]c1=O	luciferase	Recombinant	RT-M184V	HeLa	1.3
CCc1c(C)[nH]c(=O)c(N(C)C)c1C(=O)c1cc(Cl)cc(Cl)c1	cytopathic effect / MTT	-	RT-E138K	MT-4	8.5
CC(C)=CCN1Cc2cccc3[nH]c(=S)n(c23)C[C@@H]1C	cytopathic effect / MTT	A17	RT-K103N Y181C	MT-4	>556
Fc1cccc(F)c1C1SCc2nc3ccccc3n21	cytopathic effect / MTT	TIBO R82150-resistant (RT K103N)	RT-K103N	CEM	11.2
Nc1ccn([C@H]2C=C[C@@H](CO)O2)c(=O)n1	plaque count	HXB2	RT-V75T	CD4+HELA + HeLa	4.63
O=S(=O)(c1ccccc1)c1ccccc1	XTT	Costatolide-resistant (RT L100I T139I)	RT-L100I T139I	CEM + CEM-SS	23
O=c1[nH]cnc2c1ncn2[C@H]1CC[C@@H](CO)O1	cytopathic effect	BI-03.97 (HXB2(RT-A62V S68G T69D V75I F77L F116Y Q151M))	RT-A62V S68G T69D V75I F77L F116Y Q151M	MT-4	14.1
C[C@H](Cn1cnc2c(N)ncnc21)OCP(=O)(O)O	p24	N119 (NNRTI-resistant RT Y181C)	RT-Y181C	MT-2	0.118
C/C=C/CSc1cc(NC(=S)c2ccsc2C)ccc1Cl	cytopathic effect / XTT	UC781-R (RT-Y181C)	RT-Y181C	CEM + CEM-SS	26.7

The first 6 rows once more:

compound | method | strain | mutations | cell line | result
Nc1ccn([C@H]2CC[C@@H](CO)O2)c(=O)n1 | plaque count | JF14 (RT D67N T69D T215Y) | RT-D67N T69D T215Y | HELA-CD4+ | 3.98
Cc1cn([C@H]2C[C@H](N=[N+]=[N-])[C@@H](CO)O2)c(=O)[nH]c1=O | cytopathic effect / XTT | 4XAZT/Y181C (RT D67N K70R Y181C T215Y K219Q) | RT-D67N K70R Y181C T215Y K219Q | CEM + CEM-SS | 33.3
CC(C)c1nc(CN(C)C(=O)N[C@H](C(=O)N[C@@H](Cc2ccccc2)C[C@H](O)[C@H](Cc2ccccc2)NC(=O)OCc2cncs2)C(C)C)cs1 | p24 | Clinical isolate | PR-L10I K43T M46L I54L L63P A71T V82A L90M Q92K | PBMC | >23
CCc1c(C)[nH]c(=O)c(N(C)C)c1C(=O)c1cccc(CC#N)c1 | cytopathic effect / MTT | - | RT-Y181C | MT-4 | 126
Cc1occc1C(=S)Nc1ccc(Cl)c(/C=N/OC(C)(C)C)c1 | p24 | IIIB | RT-L100I | CEM | 1.7
COc1ccc(S(=O)(=O)N(CC(C)C)C[C@@H](O)[C@H](Cc2ccccc2)NC(=O)O[C@H]2CO[C@H]3OCC[C@H]32)cc1 | p24 | Clinical isolate | PR-L10I K43T M46L I54L L63P A71T V82A L90M Q92K | PBMC | 3

Fold resistance has wild type as its base. Neighbouring rows are from separate reports.